Measurements published in ChEMBL document CHEMBL1201862, “PubChem BioAssay data set” (2004).
Activity calls are given as the source filed them.

Key:
[1] = THP-1 cell cytotoxicity, dose response, cytotoxicity control for non-replicating M. tuberculosis project (AID 489025); type: functional
[2] = HepG2 cell cytotoxicity, dose response, cytotoxicity control for non-replicating M. tuberculosis project (AID 489018); type: functional; settings: Mycobacterium tuberculosis
[3] = Vero E6 cell cytotoxicity, dose response, cytotoxicity control for non-replicating M. tuberculosis project, secondary assay (AID 492998); type: functional, VeroE6; settings: Vero C1008

Measured: CC50

O=C(Nc1ccc(Br)cn1)c1ccc([N+](=O)[O-])o1
active: [1] 9.19 µM | [2] > 20 µM | [3] 6.83 µM
